This data set can be described thus: Dyeing of cPU with classes of dyes, depth of shade (K/S) by reflectance. It is filed as physicochemical. The note with it: liquor ratio 100:1, 10% owf.
[1] abbreviates: no special dyeing condition printed, 65° C.
Where [2] appears, read: with salt (20 g/l), 65° C. 45 minutes.
Where [3] appears, read: without salt, 65° C. 45 minutes.

For the compound `CCOc1ccc(Nc2ccc(C(=C3C=CC(=[N+](CC)Cc4cccc(S(=O)(=O)[O-])c4)C=C3)c3ccc(N(CC)Cc4cccc(S(=O)(=O)[O-])c4)cc3)cc2)cc1.[Na+]` [C.I. Acid Blue 83], the “K/S (depth of shade) cPU” value was 4.2588 (dyebath pH = 2.5, 65° C.); 0.8807 (dyebath pH = 3.3, 65° C.); 0.9509 (dyebath pH = 6.0, 65° C.). `CCN(CCO)c1ccc(N=Nc2sc3cc(OC)ccc3[n+]2C)cc1.COS(=O)(=O)[O-]` [C.I. Basic Blue 41]: the “K/S (depth of shade) cPU” value under setting [1] came out at 11.805.

On to `Cc1cc(-c2ccc(N=Nc3c(S(=O)(=O)[O-])cc4cc(S(=O)(=O)[O-])cc(O)c4c3O)c(C)c2)ccc1N=Nc1c(S(=O)(=O)[O-])cc2cc(S(=O)(=O)[O-])cc(O)c2c1O.[Na+].[Na+].[Na+].[Na+]` [C.I. Direct Blue 25], for which the “K/S (depth of shade) cPU” value by setting is: under setting [2], 0.0360; under setting [3], 0.0286. On to `CCN(CC)c1ccc(N=Nc2c(C#N)cc([N+](=O)[O-])cc2C#N)c(NC(C)=O)c1` [C.I. Disperse Blue 165], for which the “K/S (depth of shade) cPU” value under setting [1] amounted to 5.1600. Take C.I. Acid Blue 61: the “K/S (depth of shade) cPU” value reads like this: (dyebath pH = 2.5, 65° C.) 0.6457; (dyebath pH = 3.3, 65° C.) 0.2492; (dyebath pH = 6.0, 65° C.) 0.2057. Take C.I. Acid Blue 127: the “K/S (depth of shade) cPU” value is given as 0.4025 (dyebath pH = 2.5, 65° C.); 0.7395 (dyebath pH = 3.3, 65° C.); 0.1322 (dyebath pH = 6.0, 65° C.). Consider C.I. Basic Blue 45, for which the “K/S (depth of shade) cPU” value under setting [1] was 6.7500.

Turning to C.I. Basic Blue 62, the “K/S (depth of shade) cPU” value under setting [1] came out at 10.821. For C.I. Direct Blue 199, the “K/S (depth of shade) cPU” value under setting [2] amounted to 0.0313 and the “K/S (depth of shade) cPU” value under setting [3] was 0.0389.

On to C.I. Disperse Blue 172, for which the “K/S (depth of shade) cPU” value under setting [1] is reported as 1.1467. The same measure, in the same setting: the figure for C.I. Reactive Blue 109 is 0.0353; for C.I. Reactive Blue 160 it is 0.0285; for C.I. Reactive Blue 163 it is 0.0345.

The values are drawn from US20050196375A1, “Methods of applying antibiotic compounds to polyurethane biomaterials using textile dyeing technology” (priority 2000, published 2005).
